Measured values from several laboratories, pooled; numbers as filed in NIAID ChemDB.

Shared fields: growth or infection tests; organism: Mycobacterium tuberculosis

MIC bound: limit read from a one-dose screen. Blank or dashed fields: not listed here. Percent inhibition refers to the dose given; in toxicity tests it is the harm to the cells. Lines come from different laboratories, so protocols vary.

SMILES	endpoint	read by	dose	strain	value
CO[C@@H]1C[C@@H](C[C@H]2CC[C@H](C)[C@H]([C@@H](C)C(=O)O)O2)O[C@]2(O[C@](C)([C@H]3CC[C@@](C)([C@@H]4O[C@@H]([C@H]5O[C@@](O)(CO)[C@H](C)C[C@@H]5C)C[C@@H]4C)O3)C[C@H]2C)[C@@H]1C	inhibition	BACTEC	12.5 µg/mL	H37Rv	100%
CO[C@H]1/C=C/O[C@@]2(C)Oc3c(C)c(O)c4c(O)c(c5c(c4c3C2=O)NC2(CCN(CC(C)C)CC2)N=5)=NC(=O)/C(C)=C\C=C\[C@H](C)[C@H](O)[C@@H](C)[C@@H](O)[C@@H](C)[C@H](OC(C)=O)[C@@H]1C	MIC	-	-	2912 (rifampin-sensitive)	0.025 µg/mL
OCCc1ccccn1	MIC	-	-	H37Rv	>100 µg/mL
CCCCC(CC)CN1CN(CC(CC)CCCC)CC(C)(NCCN[C@H](CO)Cc2ccc(Cl)cc2)C1	MIC	-	-	-	12.5 µM
CCCCCCC(C(=O)OCC)C(=O)OCC	MIC	-	-	H37Rv	>100 µg/mL
COc1ccc(OC)c(CCNCCNC/C=C(\C)CCC=C(C)C)c1	MIC	-	-	-	50 µM
CC(C)c1ccc(C(=O)O)cc1	MIC	-	-	H37Rv	>100 µg/mL
CC(C)=C/C(C)=N\NC(N)=O	MIC bound	resazurin	-	H37Rv	>6.25 µg/mL
Clc1ccc(CCNCCNCc2ccccc2)c(Cl)c1	MIC	-	-	-	50 µM
CC(NCCNCc1ccccc1Sc1ccccc1CO)C12CC3CC(CC(C3)C1)C2	MIC	-	-	-	50 µM
COc1cc2cccnc2c2[nH]c(=O)c3c(c12)CCC3	MIC bound	BACTEC	-	H37Rv	>12.5 µg/mL
CCCCCCCCCCCNCCN[C@H]1C[C@H]2C[C@@H]([C@@H]1C)C2(C)C	MIC	-	-	-	50 µM
COc1ccc2oc3ccc(OC)cc3c2c1	MIC	-	-	H37Rv	>100 µg/mL
CC1=NC(C)=C(/C(C)=N/NC(=O)c2ccccc2O)C(C)/C1=C(\C)NNC(=O)c1ccccc1O	MIC bound	BACTEC	-	H37Rv	>12.5 µg/mL
CO[C@H]1/C=C/O[C@@]2(C)Oc3c(C)c(O)c4c(=O)c(c5oc6cc(N7CCN(CC(C)C)CC7)cc(=O)c6nc5c4c3=C2O)NC(=O)/C(C)=C\C=C\[C@H](C)[C@H](O)[C@@H](C)[C@@H](O)[C@@H](C)[C@H](OC(C)=O)[C@@H]1C	MBC	-	-	2219 (rifampin-resistant)	0.2 µg/mL
Nc1ccc(Cc2ccc(N)c(C(=O)O)c2)cc1C(=O)O	MIC	-	-	H37Rv	>100 µg/mL
CCCCCNCCNCCc1ccc(F)cc1	MIC	-	-	-	12.5 µM
CCn1cc(C(=O)O)c(=O)c2cc(Cl)c(-n3cccc3)cc21	MIC bound	BACTEC	-	H37Rv	>12.5 µg/mL
O=C1CCC(C(=O)O)N1	MIC	-	-	H37Rv	>100 µg/mL
CCCNCCNC[C@]1(C)CCC[C@]2(C)c3ccc(C(C)C)cc3CC[C@@H]12	MIC	-	-	-	12.5 µM
COC(=O)C1c2ccc(OC)c(OC)c2C(=O)N2CCc3cc(OC)c(OC)cc3C12	inhibition	resazurin	6.25 µg/mL	H37Rv	-2%
Oc1ccc(C=Nc2ccc(N=Nc3ccccc3)cc2)c(O)c1	MIC	-	-	H37Rv	25 µg/mL
CCOc1ccccc1CNCCNCCc1ccc(Cl)cc1Cl	MIC	-	-	-	25 µM
COc1c2c(c(OC)c3c(=O)c4ccccc4[nH]c13)OCO2	MIC bound	BACTEC	-	H37Rv	>12.5 µg/mL
O=C([O-])CCS(=O)(=O)[O-].[Na+].[Na+]	MIC	-	-	H37Rv	>100 µg/mL
N#Cc1c(C(=O)NN)c2c(-c3ccc4ccccc4c3)n[nH]c(=O)c2[nH]c1=O	inhibition	BACTEC	12.5 µg/mL	H37Rv	37%
COc1ccc(CNCCNCCc2ccccc2F)cc1OC	MIC	-	-	-	25 µM
c1ccc(-c2cccc(-c3ccccc3)n2)cc1	MIC	-	-	H37Rv	25 µg/mL
C(=N\N=C(N/N=C/C1CNCCN1)N/N=C/C1CNCCN1)/C1CNCCN1	inhibition	BACTEC	12.5 µg/mL	H37Rv	11%
Clc1nc2ccccc2s1	MIC	-	-	H37Rv	>100 µg/mL
CCCCCCCCCCCNCCNC1CCCc2ccccc21	MIC	-	-	-	25 µM
O=[N+]([O-])c1ccc2c(c1)S(=O)(=O)c1cc([N+](=O)[O-])ccc1O2	MIC	-	-	H37Rv	>100 µg/mL
C=C1C(=O)[C@@]23CC[C@H]4C(C)(CCC[C@@]4(C)C(=O)OC)[C@@H]2CC[C@]1(O)C3	inhibition	BACTEC	12.5 µg/mL	H37Rv	98%
CCCCCCCCCCCNCCN[C@H](CO)Cc1ccc(Cl)cc1	MIC	-	-	-	25 µM
Nc1c([N+](=O)[O-])ncn1[C@@H]1O[C@H](CO)[C@@H](O)[C@H]1O	inhibition	resazurin	6.25 µg/mL	H37Rv	-22%
N#Cc1ccc(N2CCCCC2)cc1[N+](=O)[O-]	MIC	-	-	H37Rv	>100 µg/mL
COc1cc(CCNCCNC[C@]2(C)CCC[C@]3(C)c4ccc(C(C)C)cc4CC[C@@H]23)ccc1O	MIC	-	-	-	12.5 µM
CN1C(=O)C(N=Nc2ccc([N+](=O)[O-])cc2)SC1=S	MIC	BACTEC	-	H37Rv	≥12.8 µg/mL
Nc1ccc(Sc2ccccc2)cc1	MIC	-	-	H37Rv	12.5 µg/mL
CCOC(=O)C1NC(=O)CNC1=O	MIC	BACTEC	-	H37Rv	≥12.5 µg/mL
Clc1ccc(CCNCCNCc2cccc3ccccc23)c(Cl)c1	MIC	-	-	-	25 µM
O=C1OCCS1	MIC bound	BACTEC	-	H37Rv	>12.5 µg/mL
CCOc1ccccc1C(=O)O	MIC	-	-	H37Rv	>100 µg/mL
N#Cc1c(-c2ccccc2)ssc1=S	MIC bound	BACTEC	-	H37Rv	>12.5 µg/mL
CN(C)c1ccc(S)cc1	MIC	-	-	H37Rv	>100 µg/mL

A second listing of 3 rows from above:

| SMILES | endpoint | read by | dose | strain | value |
|---|---|---|---|---|---|
| CCCCCCCCCCCNCCN[C@H](CO)Cc1ccc(Cl)cc1 | MIC | - | - | - | 25 µM |
| COc1cc(CCNCCNC[C@]2(C)CCC[C@]3(C)c4ccc(C(C)C)cc4CC[C@@H]23)ccc1O | MIC | - | - | - | 12.5 µM |
| CCCCC(CC)CN1CN(CC(CC)CCCC)CC(C)(NCCN[C@H](CO)Cc2ccc(Cl)cc2)C1 | MIC | - | - | - | 12.5 µM |